Anti-infective test results gathered from many reports (values: NIAID ChemDB through PubChem).

Shared fields: tests in culture; organism: Mycobacterium smegmatis

ECn is the concentration giving n% inhibition of infection, replication or growth. Conditions beyond the fields shown may differ between rows. Percent inhibition refers to the dose given; in toxicity tests it is the harm to the cells. MIC50, MIC90 and the like: level of inhibition, or share of isolates inhibited. Zone: diameter of growth inhibition.

CC(=O)O[C@@]12CO[C@@H]1C[C@H](O)[C@@]1(C)C(=O)[C@H](O)C3=C(C)C(OC(=O)/C=C/c4ccc5ccccc5c4)C[C@@](O)([C@@H](OC(=O)c4ccccc4)[C@H]21)C3(C)C ; measure: EC50 ; method: agar / colony count / visual reading ; value: 18 µM
CCCN(CCC)C(=O)c1cc(C)cc(C(=O)N[C@H]([C@H](O)CNCc2cccc(I)c2)C(F)(F)c2ccccc2)c1 ; tested at: 100 µg/disc ; strain: ATCC 19420 ; measure: zone ; method: agar diffusion ; value: 0 mm
CCN1CCN(c2nc3c(cc2F)c(=O)c(C(=O)O)cn3C(C)(C)C)CC1 ; strain: ATCC 19420 ; measure: MIC ; value: 0.13 µg/mL
O=C(O)C(Cc1ccc(I)cc1)Nc1nc(-c2ccc(Cl)c(Cl)c2)cs1 ; strain: ATCC 700084 ; measure: MIC99 ; method: broth dilution ; value: 12.5 µg/mL
CC(C)C[C@H]1C(=O)N2CCC[C@H]2[C@]2(O)O[C@](NC(=O)[C@@H]3C=C4c5cccc6[nH]cc(c56)C[C@H]4N(C)C3)(C(C)C)C(=O)C12 ; strain: mc2155 ; measure: MBC ; method: resazurin / fluorescence ; value: 38.1 µM
Cc1c(N2CCNCC2)c(F)cn2c(=O)c(C(=O)O)cc(C3CC3)c12 ; strain: ATCC114 ; measure: MIC ; value: 0.2 µg/mL
Cc1ccc2[nH]c3c(C)c4ccncc4c(C)c3c2c1 ; strain: mc2155 ; measure: MBC ; method: resazurin / fluorescence ; value: >100 µM
O=C(O)Cc1cccc2[nH]c3ccc(Cl)cc3c12 ; measure: MIC99 ; method: resazurin / visual reading / absorbance ; value: 500 µg/mL
NNC(=O)c1ccncc1 ; strain: ATCC 700084 ; measure: MIC100 ; method: broth dilution ; value: 117 µM
CCCc1c2c([nH]c(=O)c1C)C(=O)c1[nH]c(=O)c(C)c(CCC)c1C2=O ; strain: mc2155 ; measure: MIC90 ; method: resazurin / fluorescence ; value: 4.56 µg/mL
COc1c(N2CCN(C(C)C)CC2)c(F)cc2c(=O)c(C(=O)O)cn(C3CC3)c12 ; strain: KD1998 (GYRA D95N) ; measure: MIC99 ; value: 4.1 µg/mL
CC(C)C[C@H](NC(=O)[C@H](Cc1ccccc1)NC(=O)c1cnccn1)B(O)O ; measure: MIC50 ; method: turbidity ; value: 4 µM
CCCC(=O)O[C@@H](C[C@@]1(C)[C@H](C)CCC(=O)[C@@H]1C)/C(C)=C/Cc1c(O)c(Cl)c(C)c(C=O)c1O ; tested at: 10 µg/disc ; strain: ATCC 607 ; measure: zone ; method: agar diffusion ; value: 8 mm
CC1CN(c2cc3c(cc2F)c(=O)c(C(=O)O)cn3C2CC2)CC(C)N1 ; strain: KD1990 (GYRA D95A) ; measure: MIC99 ; value: 0.96 µg/mL
Cc1c(N2CCC(n3ccnn3)C2)c(F)cn2c(=O)c(C(=O)O)cc(C3CC3)c12 ; strain: ATCC114 ; measure: MIC ; value: 0.39 µg/mL
C[C@H]1c2cccc(O)c2C(O)=C2C(=O)[C@]3(O)C(O)=C(C(N)=O)C(=O)[C@@H](N(C)C)[C@@H]3[C@@H](O)[C@@H]21 ; strain: 6 strains ; measure: Median MIC ; value: 0.06 µg/mL
COc1nc2ccc(Br)cc2cc1[C@@H](c1ccccc1)[C@@](O)(CCN(C)C)c1cccc2ccccc12 ; strain: delta-cyt-bd ; measure: MIC80 ; method: broth dilution ; value: 0.06 µM
c1ccc(Nc2nc(-c3ccccn3)cs2)nc1 ; measure: MIC99 ; method: visual reading ; value: 2.5 µM
C[C@H]1COC2(CCN(c3nc(=O)c4cc(C(F)(F)F)cc(C(=O)O)c4s3)CC2)O1 ; strain: mc2155 ; measure: MIC99 ; method: resazurin ; value: 0.001 µg/mL
O=C(O)c1cn(C2CC2)c2cc(N3CCNCC3)c(F)cc2c1=O ; strain: ATCC 607 ; measure: EC50 ; value: 0.104 µg/mL
CCCN(CCC)C(=O)c1cc(C)cc(C(=O)N[C@@H]([C@@H](O)CNCc2cccc(I)c2)C(F)(F)c2ccccc2)c1 ; tested at: 100 µg/disc ; strain: ATCC 19420 ; measure: zone ; method: agar diffusion ; value: 0 mm
COC(=O)Cc1ccc2[nH]c3ccc(C)cc3c2c1 ; measure: MIC99 ; method: resazurin / visual reading / absorbance ; value: >500 µg/mL
CCN1CCN(c2c(F)cc3c(=O)c(C(=O)O)cn(C4CC4)c3c2F)CC1 ; strain: KD1987 (GYRA A91V) ; measure: MIC99 ; value: 0.97 µg/mL
Cc1c(N2CCC(CN)C2)c(F)cn2c(=O)c(C(=O)O)cc(C3CC3)c12.Cl ; strain: ATCC114 ; measure: MIC ; value: 0.1 µg/mL
COc1ccc(-c2ccc3[nH]c4cc(C(C)C(=O)O)ccc4c3c2)cc1 ; measure: MIC99 ; method: resazurin / visual reading / absorbance ; value: >500 µg/mL
COc1c(N2CCNC(C)C2)c(F)cc2c(=O)c(C(=O)O)cn(-c3ccc(F)cc3F)c12 ; strain: ATCC 19420 ; measure: MIC ; value: 4 µg/mL
Cc1c(N2CCN(C)CC2)c(F)cn2c(=O)c(C(=O)O)cc(C3CC3)c12 ; strain: ATCC114 ; measure: MIC ; value: 1.56 µg/mL
CCn1cc(C(=O)O)c(=O)c2cc(F)c(N3CC(C)NC(C)C3)nc21 ; strain: ATCC 19420 ; measure: MIC ; value: 2 µg/mL
COC(=O)Cc1ccc2[nH]c3cc(Cl)ccc3c2c1 ; measure: MIC99 ; method: resazurin / visual reading / absorbance ; value: >500 µg/mL
CC1CN(c2c(F)cc3c(=O)c(C(=O)O)cn(-c4ccc(F)cc4F)c3c2F)CC(C)N1 ; strain: ATCC 19420 ; measure: MIC ; value: 2 µg/mL
Cc1nn(-c2ccccc2)c2c1C(c1cn(-c3ccccc3)nc1-c1ccc(F)cc1)C1=C(NC(C)(c3cc(O)ccc3Cl)NC1=O)O2 ; tested at: 0.1 mg/mL ; strain: NCIM 5138 ; measure: zone ; method: agar diffusion / agar ; value: 1.9 mm
CNCC1CCN(c2nc3c(cc2F)c(=O)c(C(=O)O)cn3C2CC2)C1 ; strain: ATCC 19420 ; measure: MIC ; value: 0.25 µg/mL
CCC1CN(c2c(F)cc3c(=O)c(C(=O)O)cn(C4CC4)c3c2F)CCN1 ; strain: KD1163 (GRYA+) ; measure: MIC99 ; value: 0.068 µg/mL
O=C(O)c1cn(-c2ccc(F)cc2F)c2nc(N3CCNCC3)c(F)cc2c1=O ; strain: ATCC 19420 ; measure: MIC ; value: 0.5 µg/mL
C[C@H]1[C@H](O)[C@@H](C)/C=C/C=C/C=C/C=C/C=C/C=C/C=C/[C@H](O[C@@H]2O[C@H](C)[C@@H](O)[C@H](N)[C@@H]2O)C[C@@H]2O[C@](O)(C[C@@H](O)C[C@@H](O)CC[C@H](O)[C@@H](O)C[C@@H](O)CC(=O)O[C@H]1C)C[C@H](O)[C@H]2C(=O)O ; tested at: 100 µg/mL ; strain: ATCC 607 ; measure: inhibition ; method: agar ; value: 100%

Again, the opening 2 rows:

{"structure": "CC(=O)O[C@@]12CO[C@@H]1C[C@H](O)[C@@]1(C)C(=O)[C@H](O)C3=C(C)C(OC(=O)/C=C/c4ccc5ccccc5c4)C[C@@](O)([C@@H](OC(=O)c4ccccc4)[C@H]21)C3(C)C", "measure": "EC50", "method": "agar / colony count / visual reading", "value": "18 µM"}
{"structure": "CCCN(CCC)C(=O)c1cc(C)cc(C(=O)N[C@H]([C@H](O)CNCc2cccc(I)c2)C(F)(F)c2ccccc2)c1", "tested at": "100 µg/disc", "strain": "ATCC 19420", "measure": "zone", "method": "agar diffusion", "value": "0 mm"}